Experiments:
[1] = target: JRFL SOSIP trimer (HIV-1 subtype B, truncated at residue 663), negatively selected (HIV-1 subtype B strain JRFL); experiment: native gel or EMSA
[2] = target: JRFL SOSIP trimer (HIV-1 subtype B, truncated at residue 663), negatively selected (HIV-1 subtype B strain JRFL); experiment: negative-stain EM; unliganded negatively selected SOSIP trimers; 2% uranyl formate; 2D class averages and 3D reconstructions
[3] = target: 16055 SOSIP trimer (HIV-1 subtype C, truncated at residue 663), negatively selected (HIV-1 subtype C strain 16055); experiment: native gel or EMSA
[4] = target: 16055 SOSIP trimer (HIV-1 subtype C, truncated at residue 663), negatively selected (HIV-1 subtype C strain 16055); experiment: negative-stain EM; unliganded negatively selected SOSIP trimers; 2% uranyl formate; 2D class averages and 3D reconstructions

Substance | stoichiometry N [1] | stoichiometry N [2] | stoichiometry N [3] | stoichiometry N [4]
JRFL SOSIP trimer (HIV-1 subtype B, truncated at residue 663), negatively selected (complex) | 3 | 3 | – | –
16055 SOSIP trimer (HIV-1 subtype C, truncated at residue 663), negatively selected (complex) | – | – | 3 | 3

From paper PMC4287557
